{"source": "paper PMC9585728", "about": "“Antiviral activity and mechanism of the antifungal drug, anidulafungin, suggesting its potential to promote treatment of viral diseases” (BMC Medicine, 2022)", "tested_on": "SFTSV virions", "parameters": "species or system severe fever with thrombocytopenia syndrome virus", "conditions": "37 °C, 1 h", "note": "Like-named read-outs stand apart in the source and are kept apart here. Starred links: 1 amine or outer side, 2 acyl side, 3 side chain; linkers in the order of their positions; H or OH if unused. Positions of bridges follow the written chain, without caps; N, C: chain ends. Non-standard residues stand in square brackets, D forms with d. Residues, ends and D or L forms follow the SMILES beside them. *: point of attachment. pTerphenylCO(4''-OnC5H11) = CCCCCOc1ccc(-c2ccc(-c3ccc(C(=O)*)cc3)cc2)cc1; Orn(4R-OH,5R-OH) = O=C([C@H](C[C@@H](O)[C@@H](O)N[*:3])N[*:1])[*:2]; hTyr(3S-OH,4S-OH) = N[C@H](C(=O)O)[C@H](O)[C@@H](O)c1ccc(O)cc1; Pro(3S-OH,4S-Me) = C[C@H]1CN[C@H](C(=O)O)[C@H]1O; Hyp = O=C(O)[C@@H]1C[C@@H](O)CN1"}
{"smiles": "CCCCCOc1ccc(-c2ccc(-c3ccc(C(=O)N[C@H]4C[C@@H](O)[C@@H](O)NC(=O)[C@@H]5[C@@H](O)[C@@H](C)CN5C(=O)[C@H]([C@@H](C)O)NC(=O)[C@H]([C@H](O)[C@@H](O)c5ccc(O)cc5)NC(=O)[C@@H]5C[C@@H](O)CN5C(=O)[C@H]([C@@H](C)O)NC4=O)cc3)cc2)cc1", "note": "[Anidulafungin, anidulafungin] ({pTerphenylCO(4''-OnC5H11)}-[Orn(4R-OH,5R-OH)]T[Hyp][hTyr(3S-OH,4S-OH)]T[Pro(3S-OH,4S-Me)]; lactam 1-C)", "values": [{"measurement": "diameter of SFTSV virions", "setting": "20 μM", "value": "approximately 80 nm"}, {"measurement": "diameter of SFTSV virions", "setting": "50 μM", "value": "90–100 nm"}, {"measurement": "diameter of SFTSV virions", "setting": "100 μM", "value": "110–120 nm"}]}
